Assay results taken from article PMC10018608 (Signal Transduction and Targeted Therapy, 2023).

Test system: SARS-CoV-2 (BA.2)
Assay: Plaque reduction assay in VeroE6-TMPRSS2
Assay type: cell-based
Settings: Severe acute respiratory syndrome coronavirus 2

In the case of `COC[C@@H](NC(=O)C1CCCC(F)(F)C1)C(=O)N[C@H](Cc1ccccc1)C(=O)C(=O)NCc1nccs1` (stereo partly drawn) [SY110, N-((R)-1-(((R)-3,4-dioxo-1-phenyl-4-((thiazol-2-ylmethyl)amino)butan-2-yl)amino)-3-methoxy-1-oxopropan-2-yl)-3,3-difluorocyclohexane-1-carboxamide], the EC50 is reported as 384 nM.
